Measured values from several laboratories, pooled; numbers as filed in NIAID ChemDB.

All rows: cytotoxicity tests; endpoint: CC50

An empty or dashed field is not shown.

smiles,method,cells,result
C=CCCC1=NCC(OC(C)=O)c2cc(OC)c(OC)cc21,-,RAJI,<7.5 µM
CCOC(=O)C1=C(CN2CC(F)(F)[C@@H]3[C@H]2CON3C[C@@H](F)C(C)(C)C(=O)O)NC(c2nccs2)=N[C@H]1c1ccc(F)c(F)c1Cl,WST / absorbance,HepG2.2.15,29.7 µM
O=c1cc(NCc2ccc(F)cc2)c2cccnc2n1O,-,HeLa,<100 µM
NC(=S)Nc1ccc2c(c1)Cc1cc(N(Cc3ccccc3)Cc3ccccc3)ccc1-2,MTS,Ava5-EG(delta4AB)SEAP,>1 µM
Nc1cccc(-c2cccc(Cc3cc(=O)n(O)c4ncccc34)c2)c1,-,HeLa,<100 µM
CCCCCCNC(=S)Nc1ccc2c(c1)Cc1cc(Br)ccc1-2,MTS,Ava5-EG(delta4AB)SEAP,>1 µM
O=C(NCCc1ccc2c(n1)NCCC2)Nc1cccc(Oc2ccccc2)c1,-,PBMC,5.3 µM
CNC(=O)c1ccc2c(=O)n(O)c3ncccc3c2c1,-,HeLa,<100 µM
CCOC(=O)CCCCCOc1cccc(CN(C(=O)c2ccc(-c3cc(OC)cc(OC)c3)cc2)C(C)C)c1,-,RAJI,>20 µM
O=c1c(-c2cccc(Br)c2)c(O)c2cccnc2n1O,-,HeLa,<100 µM
CC(C)N(Cc1ccccc1OCC(=O)O)C(=O)c1ccc(-c2ccc3c(c2)OCO3)cc1,-,BJ,>20 µM
NC(=S)Nc1cccc(OCCCCCOc2c(Cl)cc(F)cc2Cl)c1,MTS,Ava5-EG(delta4AB)SEAP,>1 µM
O=C(NCCc1ccc2c(n1)NCCC2)NCc1ccc(Cl)nc1,-,PBMC,50 µM
NC(=S)Nc1cccc(OCCCCCCc2ccccc2)c1,MTS,Ava5-EG(delta4AB)SEAP,>1 µM
O=S(=O)(NCCc1ccc2c(n1)NCCC2)c1ccc(Cl)cc1,-,PBMC,50 µM
NC(=S)Nc1cccc(OCCCCCc2ccccc2)c1,MTS,Ava5-EG(delta4AB)SEAP,>1 µM
CCOC(=O)C1=C(CN2CC(F)(F)[C@H]3[C@@H]2CCN3C[C@@](C)(F)C(=O)O)NC(c2nc(C)cs2)=N[C@H]1c1cccc(F)c1C,WST / absorbance,HepG2.2.15,14.7 µM
CCOC(=O)CCCCCOc1cccc(CN(C(=O)c2ccc(-c3cccc(O)c3)cc2)C(C)C)c1,-,RAJI,>20 µM
CCCCNc1ccc2c(c1)Cc1cc(NC(N)=S)ccc1-2,MTS,Ava5-EG(delta4AB)SEAP,>1 µM
O=C(NCCc1ccc2c(n1)NCCC2)Nc1ccccc1I,-,PBMC,7.3 µM
CCOC(=O)C1=C(CN2CC(F)(F)[C@H]3[C@@H]2CCN3CC[C@](C)(O)C(=O)O)NC(c2nccs2)=N[C@H]1c1ccc(F)c(F)c1F,WST / absorbance,HepG2.2.15,100 µM
O=C(NCCc1ccc2c(n1)NCCC2)Nc1ccc(F)c(F)c1,-,PBMC,6.4 µM
CCOC(=O)C1=C(CN2CC(F)(F)[C@@H]3[C@H]2CON3CC[C@@](C)(O)C(=O)O)NC(c2nccs2)=N[C@H]1c1ccc(F)c(F)c1Cl,WST / absorbance,HepG2.2.15,>100 µM

Repeating the final 2 entries:

smiles | method | cells | result
O=C(NCCc1ccc2c(n1)NCCC2)Nc1ccc(F)c(F)c1 | - | PBMC | 6.4 µM
CCOC(=O)C1=C(CN2CC(F)(F)[C@@H]3[C@H]2CON3CC[C@@](C)(O)C(=O)O)NC(c2nccs2)=N[C@H]1c1ccc(F)c(F)c1Cl | WST / absorbance | HepG2.2.15 | >100 µM

CCn is the concentration with n% toxicity to the cells. Neighbouring rows are from separate reports.